# In paper PMC12153356, “An antisense oligomer conjugate with unpredicted bactericidal activity against Fusobacterium nucleatum” (mBio, 2025):
# System: FNN23 transcriptome
# Experiment: RNA-seq transcriptomic response to CPP-PNA treatment
# Format: cell-based, Fusobacterium nucleatum subsp. nucleatum ATCC 23726
# Details: for Significant transcript changes vs water control: 30 min, log2 fold change < −1.5 or > 1.5, FDR ≤0.01
Substance,"Significant transcript changes vs water control (FNN23, 10 µM)","σE regulon (KEGG gene set enrichment) (FNN23, 10 µM FUS79 vs PNAscr, 16 h)","Differentially expressed transcripts, FUS79 vs PNAscr (FNN23, 10 µM, 16 h, 1 × 10^6 CFU per mL in MHB, log2 fold change <−1.5 or >1.5, FDR ≤0.01, three biological replicates)"
RXRRXRRXRRXRXB [PNAscr],do not induce significant changes,–,–
"(RXR)4XB-GACATAATTGT [FUS79, non-targeting (RXR)4XB-PNA 11-mer control, (RXR)4XB-…]",do not induce significant changes,strongly upregulated,82
